# Source: PMC10810197, “A KDPG sensor RccR governs Pseudomonas aeruginosa carbon metabolism and aminoglycoside antibiotic tolerance” (Nucleic Acids Research, 2023)
# Construct, isoform or probe ends are uncertain for at least one entry.
# Biological target: RccR WT (Pseudomonas aeruginosa PAO1) (UniProt Q9HTC8)
# Assay: EMSA
# Details: EMSA: 10 nM FAM-DNA, 20 mM Tris-HCl pH 8.5, 150 mM KCl, 5 mM MgCl2, 1 mM EDTA, 1 mM DTT, 0.8% Tween 20, 2.5% glycerol, on ice 30 min, 6% native PAGE, 0.5x TBE, recombinant protein, protein details: C-terminal His6, label: FAM, probe letters rebuilt from the primers and the genome
sequence,measurement,setting,value
GGTCAATCCTTCAAGAAATGTATTGGTTGAGCACCGACTGACCCACTCAAAACCTGCTGGTGAAGGTTGTCTTGCGGGTGGCTCACCGCTGCATGGCGAGAGAATGACCGTGGCGAAGAATGACGCCGAGGAGGGGGTGGAGACGAACAGTTCGCGGACCGTGCTTCTCGACTGGATCAAGTGCCGTTCGGCTCGTGGTTGCCGGTGGGCGACTCGCTGTCGAGTCTTTCGATCTGGCTGATACGTAAACGCTTCCCCGTCCCTCAGGACAACTTCGTTCCAGTCGCAATCTCGTCAAGCCGCCTTGTGGGCAGATCAACACGGTGGAGGCCGAGGGCGTATCGGCGCAGGCACCGGGAGCTCGTCGTTTCAGAGCCCCTGATTAGCGGGAGCGGGGCCATCATGCTCTGGAAAAAATCCGTCGTCAAACGTTTTGTAGTGTTTTTTCAAGACTACTACACGAAGGTCTAAGAGTGACCGGATGGTCTTGTCTGGTCGAGATGTTT (double strand) [aceA promoter],binding result,0.0625-8 mM KDPG,binds
same,binding result,no KDPG,binds
